A mixed list of measured activities; the numbers were collected in NIAID ChemDB.

All rows: growth or infection tests; organism: Aspergillus niger; endpoint: zone

An empty or dashed field is not shown. Zone: diameter of growth inhibition. Neighbouring rows are from separate reports.

smiles	read by	dose	strain or isolate	value
NS(=O)(=O)c1ccc(NCc2ccc(O)c3ncccc23)cc1	agar	25 µg/mL		37 mm
Cc1ccc2nc(Cl)c(CNc3ccc(Br)cc3)cc2c1	agar diffusion	200 µg/mL	MTCC 281	12.16 mm
CC(=O)Oc1c(-c2ccc(Cl)cc2)oc2ccccc2c1=O	agar diffusion	100 µg/mL		18 mm
C(/C=C/c1ccccc1)=NCCNCCN=C/C=C/c1ccccc1.[I][Hg][I]	agar diffusion	20000 µg/mL		40 mm
Cc1ccc(-c2oc3ccccc3c(=O)c2O)cc1	agar diffusion	100 µg/mL		12 mm
O=c1cc(-c2ccccc2)oc2c1c(O)cc1occc12	agar diffusion	50 µg/disc		11 mm
O=C(O)c1cc(O)c(O)c(O)c1	agar diffusion / agar	50000 µg/mL		0 mm
COc1ccc(-c2oc3ccccc3c(=O)c2OC(C)=O)cc1OC	agar diffusion	100 µg/mL		13 mm
O=C(O)/C=C/c1ccccc1	agar diffusion / agar	50000 µg/mL		0.98 mm
COc1ccc(-c2csc(NS(=O)(=O)C3C(=O)ONN3c3ccc(C)cc3)n2)cc1	agar diffusion	250 µg/mL	MTCC 282	18 mm
Cc1ccc2nc(Cl)c(CN3CCN(C)CC3)cc2c1	agar diffusion	200 µg/mL	MTCC 281	6.1 mm
O=C(O)c1ccc(O)c(O)c1	agar diffusion / agar	10000 µg/mL		0.22 mm
O=C1NC(=S)NC(=O)C1=Cc1cn(-c2ccccc2)nc1-c1cc2cc(Br)cc(Br)c2oc1=O	agar diffusion / agar	100 µg		0 mm
c1ccc2ccccc2c1	agar diffusion / agar	50000 µg/mL		0.67 mm
Cc1ccc(N2NOC(=O)C2S(=O)(=O)Nc2nc3cc(C)ccc3s2)cc1	agar diffusion	250 µg/mL	MTCC 282	24 mm
Cc1nc(Nc2ccccc2)nc(C)c1Br		10 µg/mL		1.6 mm
CC1(C)CCCC2(C)OCCC=C12	agar diffusion / agar	50000 µg/mL		1.35 mm
O=C(/C=C/c1ccccc1)c1c(O)cc2occc2c1O	agar diffusion	50 µg/disc		0 mm
Cc1ccc(N2NOC(=O)C2S(=O)(=O)Nc2nc3ccc(F)cc3s2)cc1	agar diffusion	250 µg/mL	MTCC 282	21 mm
Oc1ccccc1	agar diffusion / agar	10000 µg/mL		0 mm
Cc1ccc(NCc2cc3cc(C)ccc3nc2Cl)cc1	agar diffusion	200 µg/mL	MTCC 281	10.59 mm
CC(=O)Oc1c(-c2ccc(F)cc2)oc2ccccc2c1=O	agar diffusion	100 µg/mL		19 mm
O=C1NC(=S)NC(=O)C1=Cc1cn(-c2ccccc2)nc1-c1cc2cc(Cl)cc(Cl)c2oc1=O	agar diffusion / agar	100 µg		0 mm
CC(=O)N(c1ccccc1)c1nc(C)cc(C)n1		50 µg/mL		2.4 mm
O=C1NC(=O)C(=Cc2cn(-c3ccccc3)nc2-c2cc3cc(Cl)cc(Cl)c3oc2=O)C(=O)N1	agar diffusion / agar	100 µg		0 mm
Cc1nc(Nc2ccccc2)nc(C)c1C#N		1000 µg/mL		2.5 mm
Cc1ccc2nc(Cl)c(CNc3ccccc3Cl)cc2c1	agar diffusion	200 µg/mL	MTCC 281	8.13 mm
Cc1ccc(N2NOC(=O)C2S(=O)(=O)Nc2nc(-c3c(Cl)cccc3Cl)cs2)cc1	agar diffusion	250 µg/mL	MTCC 282	21 mm
O=C1NC(=S)NC(=O)C1=Cc1cn(-c2ccccc2)nc1-c1cc2cc(Br)ccc2oc1=O	agar diffusion / agar	150 µg		0 mm
COc1ccc(-c2oc3ccc(Cl)cc3c(=O)c2O)cc1	agar diffusion	100 µg/mL		19 mm
Cc1ccc2nc(Cl)c(CN3CCCCC3)cc2c1	agar diffusion	200 µg/mL	MTCC 281	6.44 mm
CC(C)(CN=C/C=C/c1ccccc1[N+](=O)[O-])CN=C/C=C/c1ccccc1[N+](=O)[O-]	agar diffusion	5 mg/disc		0.9 mm
O=c1c(O)c(-c2ccco2)oc2ccc(Cl)cc12	agar diffusion	100 µg/mL		21 mm
Cc1ccc2nc(Cl)c(CNc3ccc(F)c(Cl)c3)cc2c1	agar diffusion	200 µg/mL	MTCC 281	14.06 mm
C(/C=C/c1ccccc1)=NCCNCCN=C/C=C/c1ccccc1.N#C[S][Hg][S]C#N	agar diffusion	10000 µg/mL		24 mm
C[C@@H]1[C@H](O)[C@@H](C)/C=C/C=C/CC/C=C/C=C/C=C/C=C/C(O[C@H]2O[C@H](C)[C@@H](O)[C@H](N)[C@@H]2O)CC2O[C@](O)(CC(O)C(O)CCC(O)CC(O)CC(O)CC(=O)O[C@H]1C)CC(O)C2C(=O)O	agar diffusion	250 µg/mL	MTCC 282	29 mm
CC(=O)Oc1c(-c2ccco2)oc2ccccc2c1=O	agar diffusion	100 µg/mL		25 mm
O=C(/C=C/c1ccccc1)c1ccc2occc2c1O	agar diffusion	50 µg/disc		0 mm
OC(Cn1cncn1)(Cn1cncn1)c1ccc(F)cc1F	agar diffusion / agar	100 µg		30 mm

A second listing of 5 rows from above:

smiles,read by,dose,strain or isolate,value
O=C1NC(=S)NC(=O)C1=Cc1cn(-c2ccccc2)nc1-c1cc2cc(Cl)cc(Cl)c2oc1=O,agar diffusion / agar,100 µg,,0 mm
Cc1ccc(NCc2cc3cc(C)ccc3nc2Cl)cc1,agar diffusion,200 µg/mL,MTCC 281,10.59 mm
C[C@@H]1[C@H](O)[C@@H](C)/C=C/C=C/CC/C=C/C=C/C=C/C=C/C(O[C@H]2O[C@H](C)[C@@H](O)[C@H](N)[C@@H]2O)CC2O[C@](O)(CC(O)C(O)CCC(O)CC(O)CC(O)CC(=O)O[C@H]1C)CC(O)C2C(=O)O,agar diffusion,250 µg/mL,MTCC 282,29 mm
CC(C)(CN=C/C=C/c1ccccc1[N+](=O)[O-])CN=C/C=C/c1ccccc1[N+](=O)[O-],agar diffusion,5 mg/disc,,0.9 mm
Cc1ccc(N2NOC(=O)C2S(=O)(=O)Nc2nc3ccc(F)cc3s2)cc1,agar diffusion,250 µg/mL,MTCC 282,21 mm